pKd: −log10 of the molar value.

The chains behind the UniProt entries cited, without tags or fusion partners. Residues count along the entry.
UniProt Q2FWG4, 20-290 limits assumed: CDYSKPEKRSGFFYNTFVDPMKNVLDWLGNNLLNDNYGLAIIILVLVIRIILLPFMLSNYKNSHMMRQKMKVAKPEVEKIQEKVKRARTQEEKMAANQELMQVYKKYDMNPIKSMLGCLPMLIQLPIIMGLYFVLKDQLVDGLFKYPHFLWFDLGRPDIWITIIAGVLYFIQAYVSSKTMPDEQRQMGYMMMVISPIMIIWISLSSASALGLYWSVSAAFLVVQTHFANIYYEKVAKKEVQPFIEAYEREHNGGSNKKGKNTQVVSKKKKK

One assay deals with S. aureus YidC2 (Staphylococcus aureus, UniProt Q2FWG4). Briefly: thermal shift in bacterial lysate, immunoblot. The conditions noted are these: 10 μg/mL compound; vehicle Tm 61.2 °C. In general terms: In western blotting, separated proteins are transferred to a membrane and probed.
Assay [1] deals with S. aureus YidC2 (SaYidC2) (Staphylococcus aureus, UniProt Q2FWG4). Kind of assay: SPR steady-state, NTA chip with amine coupling, one-site fit. The conditions noted are these: pH 7.4, 25 mM NaPi, 300 mM NaCl, 0.1% DDM, 0.01% CHS, 0.05% Tween20, 2.5% DMSO.

Regarding `NS(=O)(=O)Nc1ccc(-n2nc(C(F)(F)F)cc2-c2ccc3c(ccc4ccccc43)c2)cc1`, the Tm on S. aureus YidC2 is 75.5 °C. Further, in assay [1], the negative-log Kd (pKd) is 6.72.

For orientation: Tm means the temperature at the midpoint of the melting transition. Usually pKd stands for the Kd on a negative log10 scale, so that one unit is a factor of ten. A higher pKd goes with a small Kd.
